These results are taken from US20100260717.

Amino acid sequences for entries named in this document (tags omitted).
UniProt Q15717, whole entry: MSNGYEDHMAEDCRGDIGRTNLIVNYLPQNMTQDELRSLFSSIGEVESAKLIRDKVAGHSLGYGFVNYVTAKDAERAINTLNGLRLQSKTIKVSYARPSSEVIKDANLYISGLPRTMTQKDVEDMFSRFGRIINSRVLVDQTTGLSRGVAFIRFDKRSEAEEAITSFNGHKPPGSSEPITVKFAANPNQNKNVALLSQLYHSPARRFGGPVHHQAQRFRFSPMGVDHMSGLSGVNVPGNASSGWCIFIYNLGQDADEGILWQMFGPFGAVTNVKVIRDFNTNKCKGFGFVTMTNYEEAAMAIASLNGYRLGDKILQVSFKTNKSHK

For the data set, the target named is HuR (ELAVL1) (Homo sapiens) (UniProt Q15717). Nature of the data set: binding assay. Particulars: MITOMI; inhibited by ATA, not by most hits at 0.1 mM; protein translated in vitro; label: Cy5.

Construct, isoform or probe ends are uncertain for at least one entry.

Take “ACUCGAGCGGCCGCCACUGUGCUGGAUAUCGAUCCAUGGCGCGCCCUUUGGUUUUUCUUUGAGGUUUAGGAUUCGUGCUCAUGGUGCACGGUCUACGAGACCUCCCGGGGCACUCGCAAGCACCCUAUCAGGCAGUACCACAAGGCCUUUCGCGACCCAACACUACUCGGCUAGCAGUCUCGCGGGGGCACGCCCAAAUCUCCAGGCAUUGAGCGGGUUGAUCCAAGAAAGGACCCGGUCGUCCUGGCAAUUCCGGUGUACUCACCGGUUCCGCAGACCACUAUGGCUCUCCCGGGAGGGGGGGUCCUGGAGGCUGCACGACACUCAUACUAACGCCAUGGCUAGACGCUUUCUGCGUGAAGACAGUAGUUCCUCACAGGGGAGUGAUCUAUGGUGGAGUGUCGCCCCCAAUCGGGGGCUGGCUAUAGUGAGUCGUAUUAUGAUAUCUGCAGAAUUCCACCACACUGGACUAGUGGAUCCGAGCUCGGUACCAAGCUUAAGUUUAAACGCUAGCCAGCUUGGGUCU [HCV 3' negative terminus]”: the binding result is on record as “binds”.
